Results published in paper PMC2679143 (2009).

Amino acid sequences for entries named in this document (tags omitted). Residues count along the entry.
UniProt Q7N439, 54-313 limits assumed: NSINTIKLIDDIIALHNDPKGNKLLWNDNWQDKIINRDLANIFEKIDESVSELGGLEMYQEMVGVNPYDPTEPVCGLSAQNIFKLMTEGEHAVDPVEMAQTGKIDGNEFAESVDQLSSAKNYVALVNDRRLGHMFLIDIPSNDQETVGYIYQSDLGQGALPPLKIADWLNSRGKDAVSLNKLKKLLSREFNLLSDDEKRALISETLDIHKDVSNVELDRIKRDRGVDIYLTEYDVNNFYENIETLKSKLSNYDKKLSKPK

Molecular target: CifPl (Photorhabdus laumondii, UniProt Q7N439)
Experiment: MALDI-TOF intact mass, tryptic peptide mass fingerprinting, fluorescence increase at […] nm
Details: covalent; alkylation of active-site Cys123; pH 7.0, 1 h

**Q.** `CN(C)c1ccc2cc(C(=O)CBr)ccc2c1` was tested. Which “MALDI-TOF intact mass, tryptic peptide mass fingerprinting, fluorescence increas” value did it give?
**A.** The value was “consistent with modification at a single site in both proteins”.
